This is an account of results in PubChem BioAssay AID2320 (National Center for Advancing Translational Sciences (NCATS), 2010).

Molecules are shown by their SMILES. The list shows a part of the results, in another mix than the full data. Results filed as inconclusive are left out. Activity calls are given as the source filed them. The call rests on the fitted dose curve.

The nature of the assay: A qHTS for Small Molecule Inhibitors of Shiga Toxin (Confirmatory). Further: 0% is about no effect; nearly all actives have a fitted effect of over 75% in size. Conditions: Cell-based Shiga toxin protection reporter assay; at 38.3 µM (top of the series).

As for `O=[N+]([O-])c1cc([N+](=O)[O-])c(-c2ccn[nH]2)s1`, the activity, positive = inhibition of toxin was inactive: 32.8%.
